Results of unrelated studies side by side (data: NIAID ChemDB).

All rows: tests in culture; species: Aspergillus fumigatus; measure: zone

Rows are shuffled and stem from different studies. Zone: diameter of growth inhibition.

compound,dose,strain,result
Clc1ccc2c(c1)Sc1cccnc1N2CCCCN1c2ccc(Cl)cc2Sc2cccnc21,100 µg/mL,MTCC 343,11 mm
COc1ccc(Cc2ccc(OC)c(-c3nnc4sc(-c5ccc([N+](=O)[O-])cc5)nn34)c2)cc1-c1nnc2sc(-c3ccc([N+](=O)[O-])cc3)nn12,100 µg/disc,HIC 6094,25 mm
CC(=O)Nc1ccc(Br)cc1Sc1ncccc1[N+](=O)[O-],100 µg/mL,MTCC 343,14 mm
Cn1cc(CCC(=O)NCc2cn(C)c3ccc(Cl)cc23)c2cc(Cl)ccc21,25 µg/mL,NCIM 902,<10 mm
Clc1ccc(COC(Cn2ccnc2)c2ccc(Cl)cc2Cl)c(Cl)c1,100 µg/mL,MTCC 343,15 mm
N#CCCc1cccc(C(=O)OCc2csc(N)n2)c1,25 µg/mL,NCIM No. 902,<10 mm
COc1ccc(Cc2ccc(OC)c(-c3nnc4sc(Cc5ccccc5)nn34)c2)cc1-c1nnc2sc(Cc3ccccc3)nn12,100 µg/disc,HIC 6094,22 mm
C(=C\CN1c2ccccc2Sc2cccnc21)/CN1c2ccccc2Sc2cccnc21,100 µg/mL,MTCC 343,13 mm
Nc1nc(COC(=O)c2cccc([N+](=O)[O-])c2Cl)cs1,25 µg/mL,NCIM No. 902,<10 mm
Brc1ccc2c(c1)Sc1cccnc1N2CCCCCCN1c2ccc(Br)cc2Sc2cccnc21,100 µg/mL,MTCC 343,11 mm
O=C(CCc1c[nH]c2ccc(Cl)cc12)NCCCc1c[nH]c2ccc(OC(F)(F)F)cc12,25 µg/mL,NCIM 902,<10 mm
COc1ccc(-c2nn3c(-c4cc(Cc5ccc(OC)c(-c6nnc7sc(-c8ccc(OC)cc8)nn67)c5)ccc4OC)nnc3s2)cc1,100 µg/disc,HIC 6094,12 mm
Nc1nc(COC(=O)c2ccc(Br)cc2)cs1,25 µg/mL,NCIM No. 902,<10 mm
Cc1c(CCCNC(=O)CCc2c[nH]c3ccc(Cl)cc23)c2cc(OC(F)(F)F)ccc2n1C,25 µg/mL,NCIM 902,<10 mm
COc1ccc(Cc2ccc(OC)c(-c3nnc4sc(-c5ccccc5Cl)nn34)c2)cc1-c1nnc2sc(-c3ccccc3Cl)nn12,100 µg/disc,HIC 6094,10 mm
Nc1nc(COC(=O)c2ccccc2)cs1,25 µg/mL,NCIM No. 902,<10 mm

A second listing of 2 rows from above:

compound,dose,strain,result
Cc1c(CCCNC(=O)CCc2c[nH]c3ccc(Cl)cc23)c2cc(OC(F)(F)F)ccc2n1C,25 µg/mL,NCIM 902,<10 mm
COc1ccc(Cc2ccc(OC)c(-c3nnc4sc(-c5ccccc5Cl)nn34)c2)cc1-c1nnc2sc(-c3ccccc3Cl)nn12,100 µg/disc,HIC 6094,10 mm